# The exact form of at least one protein or probe is not confirmed.
# Chains of the proteins cited; added tags and fusions are not shown. Lines headed by an entry give the natural chain unless they say otherwise; changes in a name come on top.
# UniProt P0A2S0: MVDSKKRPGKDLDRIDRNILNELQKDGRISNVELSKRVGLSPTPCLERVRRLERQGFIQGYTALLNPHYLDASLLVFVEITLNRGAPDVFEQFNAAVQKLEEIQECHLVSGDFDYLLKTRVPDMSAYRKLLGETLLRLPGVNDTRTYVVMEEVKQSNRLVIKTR
# Key:
# [1] = target: Lrp (UniProt P0A2S0); test: EMSA; settings: 50-150 nM Lrp, Lrp+FimZ EMSA: 5 mM Tris-HCl pH 7.5, 25 mM KCl, 0.5 mM EDTA, 0.5 mM DTT, 5 ug/ml BSA, 20% glycerol, room temperature 15 min, 5% PAGE in TTE, recombinant protein, probe letters rebuilt from the primers and the genome
# [2] = target: Lrp (UniProt P0A2S0); test: DNase I footprinting; settings: recombinant protein, probe letters rebuilt from the primers and the genome
Sequence,binding result ([1]; indistinguishable from WT),other results
TGTGGATCCAAGTCAAAGGGGATGACGCTATTTTGTCAGAAGCGGGCCTCGCTGTCAGTTAACGTTTGTGTTTCCGATGCAAACGCGACGTCTCCCCCGTCTGTTGACGATACTGAGACGTGGCCCGTAAGCGCGCCATGATTAACCAAAAAGAAACAATTCATCACCCTGGCTATGGTTACCGTAATCCCTCGTCGTTAATAGCATCGGGCGGCATAATGCAGATCTCCATACAAAATAAGATTAGACCCTTCTTATATCCCAATAAGAATTAGCTTAGGTCATTATAAAGAGTTTGCGGCTATTCTCGAGTTAGCGAAATGTTTAATTTATTACCGTGACGAAATGTCATATTCGCAAAGATTAATTACTGCGTCTGATACTCAGG (double strand) [PfimA1329 (alpha beta)],binds,
TGTGGATCCAAGTCAAAGGGGATGACTCTAGACCGTCAGAAGCGGGCCTCGCTGTCAGTTAACGTTTGTGTTTCCGATGCAAACGCGACGTCTCCCCCGTCTGTTGACGATACTGAGACGTGGCCCGTAAGCGCGCCATGATTAACCAAAAAGAAACAATTCATCACCCTGGCTATGGTTACCGTAATCCCTCGTCGTTAATAGCATCGGGCGGCATAATGCAGATCTCCATACAAAATAAGATTAGACCCTTCTTATATCCCAATAAGAATTAGCTTAGGTCATTATAAAGAGTTTGCGGCTATTTTTTATTTAGCGAAATGTTTAATTTATTACCGTGACGAAATGTCATATTCGCAAAGATTAATTACTGCGTCTGATACTCAGG (double strand) [PfimA2925 (beta gamma)],binds,
TGTGGATCCAAGTCAAAGGGGATGACTCTAGACCGTCAGAAGCGGGCCTCGCTGTCAGTTAACGTTTGTGTTTCCGATGCAAACGCGACGTCTCCCCCGTCTGTTGACGATACTGAGACGTGGCCCGTAAGCGCGCCATGATTAACCAAAAAGAAACAATTCATCACCCTGGCTATGGTTACCGTAATCCCTCGTCGTTAATAGCATCGGGCGGCATAATGCGACATTTTATACAAAATAAGATTAGACCCTTCTTATATCCCAATAAGAATTAGCTTAGGTCATTATAAAGAGTTTGCGGCTATTTTTTATTTAGCGAAATGTTTAATTTATTACCGTGACGAAATGTCATATTCGCAAAGATTAATTACTGCGTCTGATACTCAGG (double strand) [PfimA1225 (gamma)],binds,
TGTGGATCCAAGTCAAAGGGGATGACGCTATTTTGTCAGAAGCGGGCCTCGCTGTCAGTTAACGTTTGTGTTTCCGATGCAAACGCGACGTCTCCCCCGTCTGTTGACGATACTGAGACGTGGCCCGTAAGCGCGCCATGATTAACCAAAAAGAAACAATTCATCACCCTGGCTATGGTTACCGTAATCCCTCGTCGTTAATAGCATCGGGCGGCATAATGCGACATTTTATACAAAATAAGATTAGACCCTTCTTATATCCCAATAAGAATTAGCTTAGGTCATTATAAAGAGTTTGCGGCTATTTTTTATTTAGCGAAATGTTTAATTTATTACCGTGACGAAATGTCATATTCGCAAAGATTAATTACTGCGTCTGATACTCAGG (double strand) [PfimA(WT)],,"binding result ([2]; 150, 100, 50 nM Lrp, poly(dI-dC) 10 ug/ml): binds; binding result ([2]; leucine, no significant effect on footprint): binds; binding result ([1]; EDTA, no divalent cations, leucine no significant effect): binds"
TGTGGATCCAAGTCAAAGGGGATGACGCTATTTTGTCAGAAGCGGGCCTCGCTGTCAGTTAACGTTTGTGTTTCCGATGCAAACGCGACGTCTCCCCCGTCTGTTGACGATACTGAGACGTGGCCCGTAAGCGCGCCATGATTAACCAAAAAGAAACAATTCATCACCCTGGCTATGGTTACCGTAATCCCTCGTCGTTAATAGCATCGGGCGGCATAATGCAGATCTCCATACAAAATAAGATTAGACCCTTCTTATATCCCAATAAGAATTAGCTTAGGTCATTATAAAGAGTTTGCGGCTATTTTTTATTTAGCGAAATGTTTAATTTATTACCGTGACGAAATGTCATATTCGCAAAGATTAATTACTGCGTCTGATACTCAGG (double strand) [PfimA529 (beta)],binds,
TGTGGATCCAAGTCAAAGGGGATGACTCTAGACCGTCAGAAGCGGGCCTCGCTGTCAGTTAACGTTTGTGTTTCCGATGCAAACGCGACGTCTCCCCCGTCTGTTGACGATACTGAGACGTGGCCCGTAAGCGCGCCATGATTAACCAAAAAGAAACAATTCATCACCCTGGCTATGGTTACCGTAATCCCTCGTCGTTAATAGCATCGGGCGGCATAATGCGACATTTTATACAAAATAAGATTAGACCCTTCTTATATCCCAATAAGAATTAGCTTAGGTCATTATAAAGAGTTTGCGGCTATTCTCGAGTTAGCGAAATGTTTAATTTATTACCGTGACGAAATGTCATATTCGCAAAGATTAATTACTGCGTCTGATACTCAGG (double strand) [PfimA1325 (alpha gamma)],binds,
TGTGGATCCAAGTCAAAGGGGATGACGCTATTTTGTCAGAAGCGGGCCTCGCTGTCAGTTAACGTTTGTGTTTCCGATGCAAACGCGACGTCTCCCCCGTCTGTTGACGATACTGAGACGTGGCCCGTAAGCGCGCCATGATTAACCAAAAAGAAACAATTCATCACCCTGGCTATGGTTACCGTAATCCCTCGTCGTTAATAGCATCGGGCGGCATAATGCGACATTTTATACAAAATAAGATTAGACCCTTCTTATATCCCAATAAGAATTAGCTTAGGTCATTATAAAGAGTTTGCGGCTATTCTCGAGTTAGCGAAATGTTTAATTTATTACCGTGACGAAATGTCATATTCGCAAAGATTAATTACTGCGTCTGATACTCAGG (double strand) [PfimA413 (alpha)],binds,

# — publication PMC3203922
